In PMC4287557:

Tests used:
[1] = target: 16055 SOSIP trimer (HIV-1 subtype C, truncated at residue 663), negatively selected (HIV-1 subtype C strain 16055); experiment: native gel or EMSA
[2] = target: 16055 SOSIP trimer (HIV-1 subtype C, truncated at residue 663), negatively selected (HIV-1 subtype C strain 16055); experiment: negative-stain EM; unliganded negatively selected SOSIP trimers; 2% uranyl formate; 2D class averages and 3D reconstructions
[3] = target: JRFL SOSIP trimer (HIV-1 subtype B, truncated at residue 663), negatively selected (HIV-1 subtype B strain JRFL); experiment: native gel or EMSA
[4] = target: JRFL SOSIP trimer (HIV-1 subtype B, truncated at residue 663), negatively selected (HIV-1 subtype B strain JRFL); experiment: negative-stain EM; unliganded negatively selected SOSIP trimers; 2% uranyl formate; 2D class averages and 3D reconstructions

| Substance | stoichiometry N [1] | stoichiometry N [2] | stoichiometry N [3] | stoichiometry N [4] |
| --- | --- | --- | --- | --- |
| 16055 SOSIP trimer (HIV-1 subtype C, truncated at residue 663), negatively selected (complex) | 3 | 3 | – | – |
| JRFL SOSIP trimer (HIV-1 subtype B, truncated at residue 663), negatively selected (complex) | – | – | 3 | 3 |
